Assay [1] concerns Schistosoma mansoni. Kind of assay: Antischistosomal activity against larva Schistosoma mansoni assessed as worm death at 5 uM measured after 48 hrs by stereomicroscopy relative to control.
The test system of assay [2] is Schistosoma mansoni. Kind of assay: Antischistosomal activity against larva Schistosoma mansoni assessed as worm death at 3.125 uM measured after 48 hrs by stereomicroscopy relative to control.

Each structure is given as a SMILES string.

As usually defined, the mortality is the share of the test organisms that died. For `CCNc1sc(Br)c([N+](=O)[O-])c1[N+](=O)[O-]`, the mortality in the assay with Schistosoma mansoni [1] and with Schistosoma mansoni [2] was 100% throughout.

The values are drawn from ChEMBL document CHEMBL4811216, “Chemotherapy for human schistosomiasis: how far have we come? What's new? Where do we go from here?” (RSC Med Chem, 2020).
